A mixed list of measured activities; the numbers were collected in NIAID ChemDB.

All rows: tests in culture; organism: Mycobacterium bovis BCG

Lines come from different laboratories, so protocols vary. A number after MIC or MFC names an inhibition level or a share of isolates. An empty or dashed field is not shown.

| SMILES | conditions | read-out | strain or isolate | read by | value |
|---|---|---|---|---|---|
| C(=N\Nc1nncs1)/c1cn(CC2CCC2)c2ccccc12 | 48 h | MIC100 | 1173P2 | broth dilution | 31.25 µg/mL |
| O=C(O)Cc1ccc2c(c1)[nH]c1ccc(Cl)cc12 |  | MIC99 |  | resazurin / visual reading / absorbance | 250 µg/mL |
| CN(C)c1ccc(O)c2c1C[C@H]1C[C@H]3[C@H](N(C)C)C(=O)C(C(N)=O)=C(O)[C@@]3(O)C(=O)C1=C2O |  | MIC | Pasteur |  | 1.56 µM |
| Fc1ccccc1Cn1cc(/C=N/Nc2nncs2)c2ccccc21 | 24 h | MIC100 | 1173P2 | broth dilution | 125 µg/mL |
| O=C(O)Cc1ccc2[nH]c3ccc(Cl)cc3c2c1 |  | MIC99 |  | resazurin / visual reading / absorbance | 125 µg/mL |
| C=C(C)O[C@H]1C[C@@]2(C)[C@@H](C[C@@H](O)[C@H]3[C@@]4(C)CC[C@@H](O)[C@@H](C)[C@@H]4CC[C@@]32C)/C1=C(\CCC=C(C)C)C(=O)[O-] |  | MIC | Pasteur |  | 3.125 µM |
| OCC#CCO | 48 h | MIC | 1173P2 | resazurin | 125 µg/mL |
| COc1ccccc1-c1ccc2[nH]c3cc(C(C)C(=O)O)ccc3c2c1 |  | MIC99 |  | resazurin / visual reading / absorbance | 125 µg/mL |
| CO[C@H]1[C@@H](O)[C@@H](C)O[C@H](O[C@H]2[C@H](Oc3cccc4c(O)c5c(=O)oc6ccc(C)c7c(=O)oc(c34)c5c67)O[C@H](C)[C@H](O)[C@@H]2O)[C@@H]1O |  | MIC | Pasteur |  | 1.56 µM |
| CC(C)CC(=O)OC(=O)CC(C)C | 48 h | MIC | 1173P2 | resazurin | 250 µg/mL |
| COc1ccc2[nH]c3ccc(CC(=O)O)cc3c2c1 |  | MIC99 |  | resazurin / visual reading / absorbance | 250 µg/mL |
| C#CCCCCCCCC | 48 h | MIC | 1173P2 | resazurin | 125 µg/mL |
| N#Cc1cccc(Cn2cc(/C=N/Nc3nncs3)c3ccccc32)c1 | 48 h | MIC100 | 1173P2 | broth dilution | 250 µg/mL |
| C#CC(C)O | 24 h | MIC | 1173P2 | resazurin | 125 µg/mL |
| OC(c1cc(C23CC4CC(CC(C4)C2)C3)nc2c(Cl)cc(Cl)cc12)C1CCCCN1 |  | MIC | Pasteur |  | 25 µM |
| CC(=O)OC(C)=O | 48 h | MIC | 1173P2 | resazurin | 500 µg/mL |
| NNC(=S)N/N=C/c1cn(Cc2ccc(Br)cc2)c2ccccc12 | 48 h | MIC100 | 1173P2 | broth dilution | >500 µg/mL |
| CC1OC(CC(=O)O)CC2=C1C(=O)c1c(O)cccc1C2=O |  | MIC | Pasteur |  | >100 µM |
| C#CCCCCCC | 48 h | MIC | 1173P2 | resazurin | 125 µg/mL |

2 of the rows above, restated:

SMILES | conditions | read-out | strain or isolate | read by | value
CC(C)CC(=O)OC(=O)CC(C)C | 48 h | MIC | 1173P2 | resazurin | 250 µg/mL
O=C(O)Cc1ccc2[nH]c3ccc(Cl)cc3c2c1 |  | MIC99 |  | resazurin / visual reading / absorbance | 125 µg/mL